# Test results from patent publication US4346087A, “Antibacterial surface active agent containing azaalkenelactam” (priority 1979, dated 1982).
# Columns and labels:
# [1] = Metal corrosion inhibition in brake fluid A, tin-plate; conditions: Table 4, azaalkenelactams […] by weight in brake fluid A, 100°±2° C., 120±2 hours; blank -0.15
# [2] = Metal corrosion inhibition in brake fluid A, steel; conditions: Table 4, azaalkenelactams […] by weight in brake fluid A, 100°±2° C., 120±2 hours; blank -0.20
# [3] = Metal corrosion inhibition in brake fluid A, aluminum; conditions: Table 4, azaalkenelactams […] by weight in brake fluid A, 100°±2° C., 120±2 hours; blank +0.07
# [4] = Metal corrosion inhibition in brake fluid A, cast iron; conditions: Table 4, azaalkenelactams […] by weight in brake fluid A, 100°±2° C., 120±2 hours; blank -0.14
# [5] = Metal corrosion inhibition in brake fluid A, brass; conditions: Table 4, azaalkenelactams […] by weight in brake fluid A, 100°±2° C., 120±2 hours; blank -0.20
# [6] = Metal corrosion inhibition in brake fluid A, copper; conditions: Table 4, azaalkenelactams […] by weight in brake fluid A, 100°±2° C., 120±2 hours; blank +0.18
smiles,measurement,setting,value
"CCCCCCCCCCCC(=O)OCCN1CCN=C(C)CC1=O [Example 12, 4-lauroyloxyethyl-7-methyl-3,6-dihydro-2H-1,4-diazepin-5-one]","Weight change, tin-plate",[1],0 mg/cm^2
same,"Weight change, steel",[2],-0.01 mg/cm^2
same,"Weight change, aluminum",[3],0 mg/cm^2
same,"Weight change, cast iron",[4],0 mg/cm^2
same,"Weight change, brass",[5],-0.02 mg/cm^2
same,"Weight change, copper",[6],+0.02 mg/cm^2
